According to publication PMC3156716:
For at least one entry, the source does not settle the construct or the ends of the probe. Protein sequences can lack the tags named with them.

Target: T1, His6-PhoP (UniProt Q9I4F9)
T1 sequence (looked up, limits assumed): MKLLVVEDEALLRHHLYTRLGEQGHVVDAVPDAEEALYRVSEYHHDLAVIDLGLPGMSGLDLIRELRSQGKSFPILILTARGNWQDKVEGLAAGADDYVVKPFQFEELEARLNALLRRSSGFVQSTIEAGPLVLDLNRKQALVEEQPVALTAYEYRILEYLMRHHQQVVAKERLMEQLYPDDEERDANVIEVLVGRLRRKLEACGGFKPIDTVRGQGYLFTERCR
Experiment: EMSA
Settings: DIG Gel Shift Kit 2nd Generation (Roche) per manufacturer; 6% native polyacrylamide gel; pH and temperature not stated; recombinant protein; protein details: His6 (pET28a); label: digoxigenin; probe letters rebuilt from the primers and the genome

“GAGGATCCGGGAACGCTGGAAACGCCGGCGTCGTCCGCGACCGCCGGCGACATCGGACCGAGCAGAAGCAGCAGGAAGCTGACGAGTAGTCCTATGGCGATCCGAAGCCGTACCACGGCGAAGTCCCTTCGAAGGTGAATGGCCGGATTATAGCCAAGTGGCCGTGGCAACGGCATAGGCCGCGGAAGCGCCGTGCGGCGCCCGCGGCTTCGGGCCCGGTCAGGACTCGCCGCGCTCGCGGGCGATGGCACGGTAGCCGATGTCCTTGCGGTAGAAGCAGCCGTTCCAGCGGATCTTCTCGGCCAGGCGATAGGCCTGTTGCTGGGCGGCGGACACGCTCTCGCCGATGGCGGTGGCACAGAGCACGCGGCCGCCTCGAGTC (double strand) [retS promoter, full length 366 bp]”: binds.
